From US20230241178A1 (SUN PHARMACEUTICAL INDUSTRIES LIMITED, priority 2020, published 2023)

What was measured:
[1] = general procedure: Fmoc solid-phase peptide synthesis; Fmoc-Rink amide resin; DIPC/HOBt; settings: whole synthesis
[2] = general procedure: Fmoc solid-phase peptide synthesis; Wang resin; DIPC/HOBt; settings: whole synthesis, Method B2

Tyr Aib Glu Gly Thr Phe Thr Ser Asp Tyr Ser Ile Ser(OMe) Leu Glu Lys Ile Ala Ala Gln Glu Phe Val Asn Trp Leu Leu Ala Gly Gly Pro Ser Ser Gly Ala Pro Pro Pro Ser Lys-NH2
final HPLC purity ([1]; Method B4): 94%

Tyr Aib Glu Gly Thr Phe Thr Ser Asp Tyr Ser Ile D-Ser-(OMe) Leu Asp Lys Ile Ala Gln Lys Ala Phe Val Gln Trp Leu Ile Ala Gly Gly Pro Ser Ser Gly Ala Pro Pro Pro Ser-NH2
final HPLC purity ([1]; Method B2): 94.74%

Tyr Ser(OMe) Glu Gly Thr Phe Thr Ser Asp Tyr Ser Ile Aib Leu Asp Lys Ile Ala Gln Lys Ala Phe Val Gln Trp Leu Ile Ala Gly Gly Pro Ser Ser Gly Ala Pro Pro Pro Ser-NH2
final HPLC purity ([1]; Method B2): 95.52%

Tyr Aib Glu Gly Thr Phe Thr Ser Asp Tyr Ser Ile Aib Leu Asp Lys Ile Ala Gln Lys Ala Phe Val Gln Trp Leu Ile Ala Gly Gly Pro Ser Ser Gly Ala Pro Pro Pro Ser Arg
final HPLC purity ([2]; run 1): 98.22% | final HPLC purity ([2]; run 2): 97.2% | final HPLC purity ([2]; run 3): 97.5%

Tyr D-Ser(OMe) Glu Gly Thr Phe Thr Ser Asp Tyr Ser Ile Aib Leu Asp Lys Ile Ala Gln Lys Ala Phe Val Gln Trp Leu Ile Ala Gly Gly Pro Ser Ser Gly Ala Pro Pro Pro Ser-NH2
final HPLC purity ([1]; Method B2): 91.96%

Tyr Aib Glu Gly Thr Phe Thr Ser Asp Tyr Ser Ile Tyr Leu Glu Lys Ile Ala Ala Gln Glu Phe Val Asn Trp Leu Leu Ala Gly Gly Pro Ser Ser Gly Ala Pro Pro Pro Ser Lys-NH2
final HPLC purity ([1]; Method B5): 95.8%
